“And” between values parts separate entries of the source, which are not always exact repeats. Equal values may be shown once. What follows is the remainder of the data, with few or none of the hits. Inconclusive results are not listed. The source made the active and inactive calls. The call rests on the fitted dose curve; tested in HEK293 cells.
Experiment: qHTS for Inhibitors of binding or entry into cells for Marburg Virus
Conditions: Marburg virus pseudotype entry/binding inhibition, cell-based; at 49.2 µM (top of the series)
On the % scale 0 is the no-effect control and ±100 the full control effect.

Row | Compound | activity change, negative = inhibition
1 | COc1ccc(C[C@@H](C)NC[C@H](O)c2ccc(O)c(NC=O)c2)cc1 | inactive: -13.9%
2 | Clc1ccc(N2CCN(Cc3c[nH]c4ncccc34)CC2)cc1 | inactive: -3.22% and inactive: 11.4%
3 | COc1ccc(C[C@H](C)NC[C@@H](O)c2ccc(O)c(NC=O)c2)cc1 | inactive: -7.76%
4 | CC(Cc1ccc(O)cc1)NCC(O)c1cc(O)cc(O)c1 (centres undefined) | inactive: -1.8% and inactive: -3.86%
